B1: mAb10935 (antibody)
heavy: EVQLVESGGGLVQPGGSLRLSCAASGFTVSSNYMSWVRQAPGKGLEWVSLIYSGGSTYYADSVKGRFTISRHNSKNTLYLQMNSLRSEDTAVYYCARVPLGDYYYGMDVWGQGTTVTVSSASTKGPSVFPLAPSSKSTSGGTAALGCLVKDYFPEPVTVSWNSGALTSGVHTFPAVLQSSGLYSLSSVVTVPSSSLGTQTYICNVNHKPSNTKVDKKV[human IgG1 Fc left out here]
light: DIQMTQSPSSLSASVGDRVTITCQASQDINKYLNWYQQKPGKAPKLLIYDASNLETGVPSRFSGSGSGTDFTFTISSLQPEDIATYYCQQSDNLPLTFGGGTKVEIKRTVAAPSVFIFPPSDEQLKSGTASVVCLLNNFYPREAKVQWKVDNALQSGNSQESVTEQDSKDSTYSLSSTLTLSKADYEKHKVYACEVTHQGLSSPVTKSFNRGEC
B2: mAb11004 (antibody)
heavy: QVQLVESGGGVVQPGRSLRLSCVASGFTFSIYGMDWVRQAPGKGLEWVAVISYDGSNKYYADSVKGRFTISRDNSKNTLYLQMNSLRPEDTAVYYCAKDREAAADAFDIWGQGTMVTVSSASTKGPSVFPLAPSSKSTSGGTAALGCLVKDYFPEPVTVSWNSGALTSGVHTFPAVLQSSGLYSLSSVVTVPSSSLGTQTYICNVNHKPSNTKVDKKV[human IgG1 Fc left out here]
light: DIQMTQSPSSVSASVGDRVTITCRASQGISSWLAWYQQKPGKAPKLLIYAASSLHSGVPSRFSGSGSGTDFTLTISSLQPEDFATYYCQQANSFRLTFGGGTKVEIKRTVAAPSVFIFPPSDEQLKSGTASVVCLLNNFYPREAKVQWKVDNALQSGNSQESVTEQDSKDSTYSLSSTLTLSKADYEKHKVYACEVTHQGLSSPVTKSFNRGEC
B3: mAb10998 (antibody)
heavy: EVQLVESGGGLVHPGGSLRLSCAASGLTVSSNYMSWVRQAPGKGLEWVSVIYSGGSTYYADSVKGRFTISRHNSKNTLFLQMNSLRAEDTAVYYCARDRPITGTTLDVWGQGTTVTVSSASTKGPSVFPLAPSSKSTSGGTAALGCLVKDYFPEPVTVSWNSGALTSGVHTFPAVLQSSGLYSLSSVVTVPSSSLGTQTYICNVNHKPSNTKVDKKV[human IgG1 Fc left out here]
light: DIQMTQSPSSLFASVGDRVTITCRASQSISSYLNWYQQKPGKAPKLLIYAASSLQSGVPSRFSGSGSGTDFTLTISSLQPEDFAFYYCQQTYSTPPITFGQGTRLEIKRTVAAPSVFIFPPSDEQLKSGTASVVCLLNNFYPREAKVQWKVDNALQSGNSQESVTEQDSKDSTYSLSSTLTLSKADYEKHKVYACEVTHQGLSSPVTKSFNRGEC
B4: mAb11006 (antibody)
heavy: EVQLVESGGGLVQPGGSLRLSCAASGFIVSRNYMSWVRQAPGKGLEWVSVIYSGGSTFYADSVKGRFTISRHNSKNTLYLQMNSLKAEDTAVYYCARELRGYFDYWGQGTLVTVSSASTKGPSVFPLAPSSKSTSGGTAALGCLVKDYFPEPVTVSWNSGALTSGVHTFPAVLQSSGLYSLSSVVTVPSSSLGTQTYICNVNHKPSNTKVDKKV[human IgG1 Fc left out here]
light: DIQLTQSPSFLSASVGDRVTITCWASQGISSYLAWYQQKPGKAPKLLIYAASTLQSGVPSRFSGSGSGTEFTLTISSLQPEDFATYYCQLLNSYPYTFGQGTKLEIKRTVAAPSVFIFPPSDEQLKSGTASVVCLLNNFYPREAKVQWKVDNALQSGNSQESVTEQDSKDSTYSLSSTLTLSKADYEKHKVYACEVTHQGLSSPVTKSFNRGEC
B5: mAb11008 (antibody)
heavy: EVQLVESGGGLVQPGGSLRLSCAASGFTVSSNYMTWVRQAPGKGLEWVSVIYSGGSTFYADSVKGRFTISRHNSENTLYLQMNSLRAEDTAVYYCARDLAAAGTDYWGQGALVTVSSASTKGPSVFPLAPSSKSTSGGTAALGCLVKDYFPEPVTVSWNSGALTSGVHTFPAVLQSSGLYSLSSVVTVPSSSLGTQTYICNVNHKPSNTKVDKKV[human IgG1 Fc left out here]
light: B4 light with E81D, L90H, P95L
B6: mAb10930 (antibody)
heavy: EVQLVESGGGLVQPGRSLRLSCAASGFTFDDYAMYWVRQAPGKGLEWVSGISWNSGSIGYADSVKGRFTISRDNAKNSLYLQMNSLRAADTALYYCAKDKDWNSRGYYYYGMDVWGQGTTVTVSSASTKGPSVFPLAPSSKSTSGGTAALGCLVKDYFPEPVTVSWNSGALTSGVHTFPAVLQSSGLYSLSSVVTVPSSSLGTQTYICNVNHKPSNTKVDKKV[human IgG1 Fc left out here]
light: [about 100 residues left out here][about 100 residues left out here]
B7: mAb10921 (antibody)
heavy: EVQLVESGGGLVQPGGSLRLSCAASGITVSSNYMSWVRQAPGKGLEWVSVIYSGGSTFYADSVKGRFTISRHNSKNTLYLQMNSLRAEDTAVYYCARERNFDAFDIWGQGTMVTVSSASTKGPSVFPLAPSSKSTSGGTAALGCLVKDYFPEPVTVSWNSGALTSGVHTFPAVLQSSGLYSLSSVVTVPSSSLGTQTYICNVNHKPSNTKVDKKV[human IgG1 Fc left out here]
light: DIQMTQSPSSVSASVGDRVTITCRASQGISSWLAWYQQKPGKAPKLLIYAASSLQSGVPSRFSGSGSGTDFTLTISSLQPEDFATYYCQQANSFPLFTFGPGTKVDIKRTVAAPSVFIFPPSDEQLKSGTASVVCLLNNFYPREAKVQWKVDNALQSGNSQESVTEQDSKDSTYSLSSTLTLSKADYEKHKVYACEVTHQGLSSPVTKSFNRGEC
B8: mAb10938 (antibody)
heavy: EVQLVESGGGLVQPGGSLRLSCAVSGFTVSSNYMSWVRQAPGKGLEWVSLIYSGGSTFYADSVKGRFTISRHNSKNTLYLQMNSLRAEDTAVYYCAREGGYSYDYNYWGQGTLVTVSSASTKGPSVFPLAPSSKSTSGGTAALGCLVKDYFPEPVTVSWNSGALTSGVHTFPAVLQSSGLYSLSSVVTVPSSSLGTQTYICNVNHKPSNTKVDKKV[human IgG1 Fc left out here]
light: B1 light with N30R, K31N, S65I, S91Y, L96I, G100Q, K103R, V104L
B9: mAb10915 (antibody)
heavy: B4 heavy with I28T, R31S, S35N, K86R, A87P, E98D, R100G
light: [about 100 residues left out here][about 120 residues left out here]
B10: mAb10984 (antibody)
heavy: EVQLVESGGGLVQPGGSLRLSCAASGLTVNRNYMSWVRQAPGKGLEWVSLIYSGGSTYYADSVKGRFTISRDNSKNTLYLQMNSLRLEDTAVYYCARGELGIPYGMDVWGQGTTVTVSSASTKGPSVFPLAPSSKSTSGGTAALGCLVKDYFPEPVTVSWNSGALTSGVHTFPAVLQSSGLYSLSSVVTVPSSSLGTQTYICNVNHKPSNTKVDKKV[human IgG1 Fc left out here]
light: QSVLTQPPSVSAAPGQKVTISCSGSSSNIGNNYVSWYQQLPGTAPKLLIYDNNKRPSGIPDRFSGSKSGTSATLGITGLQTGDEADYYCGTWDSSLSAGVFGGGTKLTVLGQPKAAPSVTLFPPSSEELQANKATLVCLISDFYPGAVTVAWKADSSPVKAGVETTTPSKQSNNKYAASSYLSLTPEQWKSHRSYSCQVTHEGSTVEKTVAPTECS
B11: mAb10982 (antibody)
heavy: EVQLVESGGGLVQPGGSLRLSCAASGLTVSSNYMSWVRQAPGKGLEWVSVIYSGGTTYYADSVKGRFTISRHNSKNTLSLQMNSLRAEDTAVYYCARGEGANYYGMDVWGQGTTVTVSSASTKGPSVFPLAPSSKSTSGGTAALGCLVKDYFPEPVTVSWNSGALTSGVHTFPAVLQSSGLYSLSSVVTVPSSSLGTQTYICNVNHKPSNTKVDKKV[human IgG1 Fc left out here]
light: QSVLTQPPSVSGAPGQRVTISCTGSSSNIGTGYDVHWYQQLPGTAPKLLIYGNSNRPSGVPDRFSGSKSGTSASLAITGLQAEDEADYYCQSYDSSLSGYVVFGGGTKLTVLGQPKAAPSVTLFPPSSEELQANKATLVCLISDFYPGAVTVAWKADSSPVKAGVETTTPSKQSNNKYAASSYLSLTPEQWKSHRSYSCQVTHEGSTVEKTVAPTECS
B12: mAb10934 (antibody)
heavy: EVQLVESGGGLVKPGGSLRLSCAASGITFSNAWMSWVRQAPGKGLEWVGRIKSKTDGGTTDYAAPVKGRFTISRDDSKNTLYLQMNSLKTEDTAVYYCTTARWDWYFDLWGRGTLVTVSSASTKGPSVFPLAPSSKSTSGGTAALGCLVKDYFPEPVTVSWNSGALTSGVHTFPAVLQSSGLYSLSSVVTVPSSSLGTQTYICNVNHKPSNTKVDKKV[human IgG1 Fc left out here]
light: B1 light with N30W, K31N, L33I, E55K, S91H, N93D, L96P, G100Q

Residue numbers refer to the chain shown, from its start. “And” between values parts separate entries of the source, which are not always exact repeats. Equal entries are not always repeated.

The record followed here is patent US20220356230A1.

The term t½ denotes the time in which the quantity being followed falls by half.

The target of one test is T1, SARS-COV-2-S RBD extracellular domain expressed with a C-terminal myc-myc-hexahistidine (SARS-COV-2 RBD-MMH) (SARS-CoV-2).
Assay: not given
To be noted: remark: other sources report otherwise.
As to B1, the t½ is 24 s and 54 s.

For the molecule B2, the t½ is 48 s and 24 s.

As to B3, the t½ is 24 s and 30 s.

As for B4, the t½ is 474 s and 330 s.

With B5, the t½ is 522 s and 630 s.

Regarding B6, the t½ was 60 s.

Another test concerns the target Bt-SARS-CoV-2 Spike Protein (RBD)([…]).mFc (SARS-CoV-2). In words: Luminex bead assay, antibody supernatant, biotinylated antigen on microspheres. As to conditions: remark: other sources report otherwise.
As to B7, the Binding signal (MFI) came out at 11300 MFI.

B1 showed a Binding signal (MFI) of 19300 MFI.

For B8, the Binding signal (MFI) stood at 17200 MFI.

In the case of B9, the Binding signal (MFI) stood at 20100 MFI.

Take B6: the Binding signal (MFI) is 16600 MFI.

As to B10, the Binding signal (MFI) stood at 17100 MFI.

In turn, B11 showed a Binding signal (MFI) of 12300 MFI.

In a further test the target is T1, SARS-COV-2-S RBD extracellular domain ….
Assay: not given
To be noted: remark: other sources report otherwise. This is another data set of the same source.
Regarding B2, the t½ is 48 s and 36 s.

As for B3, the t½ came out at 24 s.

Regarding B4, the t½ was 474 s and 348 s.

Turning to B5, the t½ is 522 s and 540 s.

The target of the next test is SARS-CoV-2 Spike Protein (RBD)([…]).mmH (SARS-CoV-2).
Assay: not given
As to conditions: remark: other sources report otherwise.
Turning to B7, the Binding signal (MFI) is 25000 MFI and 23600 MFI.

As for B1, the Binding signal (MFI) is 34900 MFI and 32600 MFI.

Take B8: the Binding signal (MFI) was 29400 MFI and 27100 MFI.

For B12, the Binding signal (MFI) is 33800 MFI and 32600 MFI.

B9: the Binding signal (MFI) is 31800 MFI and 30300 MFI.

In the case of B6, the Binding signal (MFI) was determined as 25100 MFI.

B10: the Binding signal (MFI) was 27900 MFI and 26200 MFI.

As for B11, the Binding signal (MFI) is 24300 MFI and 22200 MFI.
